Compound potency records, mixed from different reports. Data source: NIAID ChemDB in PubChem.

Common to all: whole-cell or culture tests; organism: HIV-1; endpoint: EC50

Neighbouring rows are from separate reports. ECn: concentration that inhibits the pathogen or its effect by n%.

{"SMILES": "O=c1[nH]cnc2c1ncn2[C@H]1CC[C@@H](CO)O1", "strain or isolate": "RTMC", "cell line": "CD4+HELA + HeLa", "method": "plaque count", "value": "2.5 µM"}
{"SMILES": "O=C1O[C@H]2[C@@H]3OC(=O)c4cc(O)c(O)c(O)c4-c4c(cc(O)c(O)c4O)C(=O)OC[C@H]2O[C@@H](OC(=O)c2cc(O)c(O)c(O)c2)[C@@H]3OC(=O)c2cc(O)c(O)c3c2[C@@H]2C1=CC(=O)[C@](O)(O3)C2(O)O", "strain or isolate": "HX10 WT", "cell line": "MAGI", "value": "0.74 µg/mL"}
{"SMILES": "Cc1cn([C@H]2C[C@H](N=[N+]=[N-])[C@@H](CO)O2)c(=O)[nH]c1=O", "strain or isolate": "UG-92-031 (subtype A)", "cell line": "PBMCs", "method": "p24 / ELISA / antigen", "setting": "4 d", "value": "0.16 µM"}
{"SMILES": "Nc1nc(NC2CC2)c2ncn([C@H]3C=C[C@@H](CO)C3)c2n1", "strain or isolate": "Recombinant", "changes": "RT-A62T V118I M184V", "cell line": "HeLa", "method": "luciferase", "value": "4.94 µM"}
{"SMILES": "Nc1nc(=O)n([C@@H]2CS[C@H](CO)O2)cc1F", "strain or isolate": "HXB2", "cell line": "HT4 + HT4 LacZ-1", "method": "plaque count", "value": "0.09 µM"}
{"SMILES": "CC(=O)N1CCC(C(=O)N(CCCN2CCC(Cc3ccc(C(N)=O)cc3)CC2)c2ccc(C)c(Cl)c2)CC1", "strain or isolate": "R5 subtype F_1 recombinant", "cell line": "U87 (CD4+ CCR5+) + U87", "method": "luciferase", "value": "0.008 µM"}
{"SMILES": "Nc1ccn([C@H]2CC[C@@H](CO)O2)c(=O)n1", "strain or isolate": "HXB2", "cell line": "HT4 + HT4 LacZ-1", "method": "plaque count", "value": "0.24 µM"}
{"SMILES": "Cc1cn([C@H]2C[C@H](N=[N+]=[N-])[C@@H](CO)O2)c(=O)[nH]c1=O", "strain or isolate": "clinical isolate A036D (RT D67N K70R T215Y)", "changes": "RT-D67N K70R T215Y", "cell line": "HT4 + HT4-6C", "method": "plaque count", "value": "5.6 µM"}
{"SMILES": "Cc1cn([C@H]2C[C@H](N=[N+]=[N-])[C@@H](CO)O2)c(=O)[nH]c1=O", "changes": "L74V", "cell line": "Primary T lymphocytes", "method": "p24 / ELISA", "value": "0.02 µM"}
{"SMILES": "CCCCOc1ccc(Cc2cc(C3CCN(C[C@H]4CN([C@@H](C(=O)O)C(C)C)C[C@@H]4c4cccc(F)c4)CC3)n(CC)n2)cc1", "strain or isolate": "BaL", "cell line": "HeLa", "method": "β-galactosidase", "value": "<0.011 µM"}
{"SMILES": "CCc1c(CC2CCCCC2)nc(SCC(=O)c2ccccc2)[nH]c1=O", "strain or isolate": "Clinical isolate", "changes": "74V", "cell line": "C8166", "method": "ELISA", "value": "0.00327 µM"}
{"SMILES": "Nc1nc(=O)n([C@@H]2CS[C@H](CO)O2)cc1F", "strain or isolate": "NL4-3", "changes": "A114S/A502V", "cell line": "TZM-gfp", "method": "GFP", "value": "0.39 µM"}
{"SMILES": "CCOC(=O)[C@H](C)N[P@](=O)(CO[C@@H]1C=C(F)[C@H](n2cnc3c(N)ncnc32)O1)Oc1ccccc1", "cell line": "PBMCs", "method": "p24 / ELISA / antigen", "value": "0.0037 µM"}
{"SMILES": "COC(=O)[C@H](C)NP(=O)(OC[C@@H]1C=C[C@H](n2cc(C)c(=O)[nH]c2=O)O1)Oc1ccc(Br)cc1", "strain or isolate": "S159-2 NRTI resistant", "changes": "RT-M41L K103N T215Y", "cell line": "PBMC", "method": "p24", "value": "0.0008 µM"}
{"SMILES": "Nc1nc(=O)n([C@@H]2CS[C@H](CO)O2)cc1F", "changes": "L74V", "cell line": "Primary T lymphocytes", "method": "p24 / ELISA", "value": "0.2 µM"}
{"SMILES": "O=c1[nH]cnc2c1ncn2[C@H]1CC[C@@H](CO)O1", "strain or isolate": "A012B WT", "cell line": "MAGI (CCR5) + MAGI", "method": "β-galactosidase", "value": "1.1 µM"}
{"SMILES": "CC[C@@H](C)[C@H](C(=O)O)N1C[C@H](CN2CCC(c3cc(Cc4ccc(OCc5ccccc5)cc4)nn3CC)CC2)[C@@H](c2cccc(F)c2)C1", "strain or isolate": "BaL", "cell line": "HeLa", "method": "β-galactosidase", "setting": "50% human serum", "value": "<0.1 µM"}
{"SMILES": "Nc1ccn([C@H]2C=C[C@@H](CO)O2)c(=O)n1", "strain or isolate": "HXB2", "cell line": "CD4+HELA + HeLa", "method": "plaque count", "value": "0.8 µM"}
{"SMILES": "Cc1cn([C@H]2C=C[C@@H](CO)O2)c(=O)[nH]c1=O", "changes": "M184V", "cell line": "Primary T lymphocytes", "method": "p24 / ELISA", "value": "0.6 µM"}
{"SMILES": "Cc1cn([C@H]2C[C@H](N=[N+]=[N-])[C@@H](CO)O2)c(=O)[nH]c1=O", "strain or isolate": "G704-2 Clinical isolate ZDV-resistant", "changes": "RT-M41L D67N K70R L210W T215Y", "cell line": "HT4 + HeLa", "method": "syncytia", "value": "5.7 µM"}
{"SMILES": "C/C(=C(/CCO)SSCC1CCCO1)N(C=O)Cc1cnc(C)nc1N", "strain or isolate": "LAV-1", "cell line": "CEM/HIV-1(LAV-1) + CEM", "method": "p24", "value": "<50 µM"}
{"SMILES": "CCCOc1ccc(Cc2cc(C3CCN(C[C@H]4CN([C@@H](C(=O)O)C(C)C)C[C@@H]4c4cccc(F)c4)CC3)n(CC)n2)cc1", "strain or isolate": "BaL", "cell line": "HeLa", "method": "β-galactosidase", "value": "<0.0037 µM"}
{"SMILES": "Nc1ncnc2c1ncn2[C@@H]1O[C@H](OCP(=O)(O)O)C=C1F", "strain or isolate": "B940374 (subtype B)", "cell line": "PBMCs", "method": "p24 / ELISA / antigen", "setting": "4 d", "value": "17.6 µM"}
{"SMILES": "Cc1cn([C@H]2C[C@H](N=[N+]=[N-])[C@@H](CO)O2)c(=O)[nH]c1=O", "strain or isolate": "52534-2 NRTI resistant recombinant", "changes": "RT-M41L T69ins L74V M184V L210W T215Y", "cell line": "PBMC", "method": "p24", "value": ">1 µM"}
{"SMILES": "C#C[C@]1(CO)O[C@@H](n2cnc3c(N)nc(F)nc32)C[C@@H]1O", "strain or isolate": "Clinical isolate", "changes": "V90I/M184I", "cell line": "MT4-GFP", "method": "fluorescence", "value": "0.00586 µM"}
{"SMILES": "CCn1nc(Cc2cccc(F)c2)cc1C1CCN(C[C@H]2CN([C@@H](C(=O)O)C3CCCCC3)C[C@@H]2c2cccc(F)c2)CC1", "strain or isolate": "BaL", "cell line": "HeLa", "method": "β-galactosidase", "setting": "50% human serum", "value": "<0.033 µM"}
{"SMILES": "O=c1[nH]cnc2c1ncn2[C@H]1CC[C@@H](CO)O1", "strain or isolate": "HIVRTMF (RT L74V Y181C)", "changes": "RT-L74V Y181C T215Y", "cell line": "HT4 + HT4 LacZ-1", "method": "plaque count", "value": "10 µM"}
{"SMILES": "Cn1c2ccccc2c2c1cc(C#N)c(=O)n2-c1ccc([N+](=O)[O-])cc1", "strain or isolate": "NNRTI-resistant", "changes": "RT-G190S", "cell line": "HeLa", "method": "luciferase", "value": "0.039 µM"}
{"SMILES": "C[C@H](Cn1cnc2c(N)ncnc21)OCP(=O)(O)O", "cell line": "Macrophages", "method": "p24 / ELISA / antigen", "value": "0.41 µM"}
{"SMILES": "N#Cc1cc2[nH]c3ccccc3c2n(-c2ccc([N+](=O)[O-])cc2)c1=O", "strain or isolate": "Recombinant", "changes": "RT-M41L A62V S68N G112S M184V", "cell line": "HeLa", "method": "luciferase", "value": ">0.1769 µM"}
{"SMILES": "Cc1cn([C@H]2C[C@H](N=[N+]=[N-])[C@@H](CO)O2)c(=O)[nH]c1=O", "strain or isolate": "ADA", "cell line": "MM + M/M", "method": "p24", "value": "0.03 µM"}
{"SMILES": "COC(=O)[C@H](C)NP(=O)(OC[C@@H]1C=C[C@H](n2cc(C)c(=O)[nH]c2=O)O1)Oc1ccc(Br)cc1", "strain or isolate": "P798-1 Clinical isolate ZDV-resistant", "changes": "RT-M41L T215Y", "cell line": "PBMC", "method": "p24", "value": "0.0075 µM"}
{"SMILES": "S=C(NCCc1cccs1)Nc1ccc(Br)cn1", "strain or isolate": "M558-2 Clinical isolate NRTI-resistant", "changes": "RT-M41L T215N", "cell line": "HT4 + HeLa", "method": "plaque count", "value": "0.074 µM"}
{"SMILES": "Cc1[nH]c(=O)c(F)cc1Cn1cnc(C(F)(F)C(F)F)c(Oc2cc(C(F)F)cc(C#N)c2C)c1=O", "cell line": "CD4+ T-cell", "method": "luminescence", "value": ">40.5 µM"}
{"SMILES": "C#C[C@@]1(CO)C=C[C@H](n2cc(C)c(=O)[nH]c2=O)O1", "strain or isolate": "NL4-3", "changes": "RT-M184V", "cell line": "MAGI (CCR5) + MAGI", "method": "β-galactosidase", "value": "0.79 µM"}
{"SMILES": "CC(C)(C)NC(=O)[C@@H]1CN(Cc2cccnc2)CCN1C[C@@H](O)C[C@@H](Cc1ccccc1)C(=O)N[C@H]1c2ccccc2C[C@H]1O", "strain or isolate": "52534-2 NRTI resistant recombinant", "changes": "RT-M41L T69ins L74V M184V L210W T215Y", "cell line": "PBMC", "method": "p24", "value": "0.0365 µM"}
{"SMILES": "O=c1[nH]cnc2c1ncn2[C@H]1CC[C@@H](CO)O1", "strain or isolate": "HXB2D", "cell line": "CBMC", "method": "p24", "value": "6.4 ± 0.4 µM"}
{"SMILES": "Cc1cc(S(N)(=O)=O)ccc1NC(=O)COc1ccc(Cl)cc1C(=O)c1cc(Cl)cc(C#N)c1", "strain or isolate": "NNRTI-resistant (RT K103N P225H)", "changes": "RT-K103N P225H", "cell line": "MAGI", "method": "β-galactosidase", "value": "0.0007 µM"}
{"SMILES": "Cc1ccnc2c1NC(=O)c1cccnc1N2C1CC1", "strain or isolate": "CLADE F", "cell line": "PBMC", "method": "cytopathic effect / XTT", "setting": "clinical isolate", "value": "0.2 µM"}
{"SMILES": "CCOc1ccc(Cc2cc(C3CCN(C[C@H]4CN([C@@H](C(=O)O)C5CCCCC5)C[C@@H]4c4cccc(F)c4)CC3)n(CC)n2)cc1", "strain or isolate": "BaL", "cell line": "HeLa", "method": "β-galactosidase", "setting": "50% human serum", "value": "<0.033 µM"}
{"SMILES": "Nc1ccn([C@H]2CC[C@@H](CO)O2)c(=O)n1", "strain or isolate": "GB8", "cell line": "JM", "method": "syncytia", "value": "0.007 µM"}
{"SMILES": "CCCN(C)C(=O)Oc1nsnc1-c1c(Cl)ccc(N)c1Cl", "strain or isolate": "IIIB", "changes": "RT-E138K", "cell line": "MAGI", "method": "MTT", "value": "0.047 µM"}
{"SMILES": "CCn1nc(Cc2ccc(C(F)(F)F)cc2)cc1C1CCN(C[C@H]2CN([C@@H](C(=O)O)C(C)C)C[C@@H]2c2cccc(F)c2)CC1", "strain or isolate": "BaL", "cell line": "HeLa", "method": "β-galactosidase", "value": "<0.0037 µM"}

For reference, 3 entries again:

Nc1ccn([C@H]2CC[C@@H](CO)O2)c(=O)n1 ; strain or isolate: GB8 ; cell line: JM ; method: syncytia ; value: 0.007 µM
CC(=O)N1CCC(C(=O)N(CCCN2CCC(Cc3ccc(C(N)=O)cc3)CC2)c2ccc(C)c(Cl)c2)CC1 ; strain or isolate: R5 subtype F_1 recombinant ; cell line: U87 (CD4+ CCR5+) + U87 ; method: luciferase ; value: 0.008 µM
Nc1ccn([C@H]2CC[C@@H](CO)O2)c(=O)n1 ; strain or isolate: HXB2 ; cell line: HT4 + HT4 LacZ-1 ; method: plaque count ; value: 0.24 µM